PubChem BioAssay AID1259414 | Drosophila RNAi Screening Center, 2018

- Purpose: 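Fly genes that alter Wolbachia amount inside host cells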 (primary screen)
- Cells: Drosophila JW18 cells infected with Wolbachia
- Reagents: long dsRNA against Drosophila genes, 0.25 µg dsRNA per well of a 384-well plate
- Time to read-out: 5 days
- Challenge: cells persistently infected with Wolbachia before knock-down; no added drug
- Measurement: 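Imaged fluorescence in situ signal for Wolbachia 23S rRNA per DAPI-counted host cell, given as a robust z-score within each plate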
- Reading the numbers: Wolbachia per cell robust z: higher = more Wolbachia per host cell than the plate typical
- Call rule: 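Hit when robust z is 1.5 or more, or -1.5 or less, in at least two of three replicates; excludes dsRNAs with several or no targets, genes not expressed in JW18 and well A1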
The deposit covers about 24,000 reagents; shown is a random part of those with a known target gene and a result. Of all reagents, about 1,210 (5%) got an active call. 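Inactive calls also include excluded dsRNAs with several or no targets, genes unexpressed in JW18, and well A1, regardless of score.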 A number with no mark means an inactive call. Reagent sequences are not shown.

Against TwdlX [DRSC19151] the deposit lists Wolbachia per cell robust z, rep 1 = -0.0553; Wolbachia per cell robust z, rep 2 = -1.3; Wolbachia per cell robust z, rep 3 = 0.0886.
Knock-down of TwdlX [DRSC29528] came out at: Wolbachia per cell robust z, rep 1 = 0.232; Wolbachia per cell robust z, rep 2 = 0.612; Wolbachia per cell robust z, rep 3 = 0.453.
Silencing of FMRFa [DRSC07428] resulted in: Wolbachia per cell robust z, rep 1 = 0.547; Wolbachia per cell robust z, rep 2 = -0.302; Wolbachia per cell robust z, rep 3 = -0.726.
Against CG16972 [DRSC02550] the deposit lists Wolbachia per cell robust z, rep 1 = -0.36; Wolbachia per cell robust z, rep 2 = -1.57; Wolbachia per cell robust z, rep 3 = -0.894.
Knock-down of Nepl6 [DRSC03242] gave: Wolbachia per cell robust z, rep 1 = 0.195; Wolbachia per cell robust z, rep 2 = 0.38; Wolbachia per cell robust z, rep 3 = 0.0827.
Knock-down of Nepl6 [DRSC26260] gave: Wolbachia per cell robust z, rep 1 = -0.454; Wolbachia per cell robust z, rep 2 = -0.209; Wolbachia per cell robust z, rep 3 = 0.85.
Depletion of Cul5 [DRSC14723] resulted in: Wolbachia per cell robust z, rep 1 = 0.128; Wolbachia per cell robust z, rep 2 = -0.432; Wolbachia per cell robust z, rep 3 = -0.485.
CR31427 [DRSC22675] scored Wolbachia per cell robust z, rep 1 = -0.978; Wolbachia per cell robust z, rep 2 = 0.8; Wolbachia per cell robust z, rep 3 = 0.574.
CR31427 [DRSC26472] gave Wolbachia per cell robust z, rep 1 = 0.355; Wolbachia per cell robust z, rep 2 = 0.0588; Wolbachia per cell robust z, rep 3 = 0.399.

Sorted by “Wolbachia per cell robust z, rep 3” (lowest first): 2 of the entries above
FMRFa [DRSC07428]: Wolbachia per cell robust z, rep 1 = 0.547; Wolbachia per cell robust z, rep 2 = -0.302; Wolbachia per cell robust z, rep 3 = -0.726
TwdlX [DRSC29528]: Wolbachia per cell robust z, rep 1 = 0.232; Wolbachia per cell robust z, rep 2 = 0.612; Wolbachia per cell robust z, rep 3 = 0.453

Continued:
Depletion of CG32651 [DRSC18941] came out at: Wolbachia per cell robust z, rep 1 = -0.398; Wolbachia per cell robust z, rep 2 = -4.5; Wolbachia per cell robust z, rep 3 = -2.47.
After knock-down of CG34109 [DRSC02169], the screen gave Wolbachia per cell robust z, rep 1 = 0.241; Wolbachia per cell robust z, rep 2 = -0.195; Wolbachia per cell robust z, rep 3 = 0.597.
Against CG34109 [DRSC02224] the deposit lists Wolbachia per cell robust z, rep 1 = 1.46; Wolbachia per cell robust z, rep 2 = 0.25; Wolbachia per cell robust z, rep 3 = -1.32.
Against CG34109 [DRSC02225] the deposit lists Wolbachia per cell robust z, rep 1 = -2.11; Wolbachia per cell robust z, rep 2 = 0.0579; Wolbachia per cell robust z, rep 3 = 0.348.
CG34109 [DRSC26977] gave Wolbachia per cell robust z, rep 1 = 0.15; Wolbachia per cell robust z, rep 2 = 0.66; Wolbachia per cell robust z, rep 3 = 2.55.
CG34109 [DRSC30104] showed Wolbachia per cell robust z, rep 1 = 1.07; Wolbachia per cell robust z, rep 2 = 0.562; Wolbachia per cell robust z, rep 3 = 0.992.
Depletion of CG11269 [DRSC04094] gave: Wolbachia per cell robust z, rep 1 = -0.203; Wolbachia per cell robust z, rep 2 = -0.382; Wolbachia per cell robust z, rep 3 = -2.96.
Silencing of tum [DRSC07575] resulted in: Wolbachia per cell robust z, rep 1 = -0.381; Wolbachia per cell robust z, rep 2 = 1.55; Wolbachia per cell robust z, rep 3 = 1.09.
Pp1-13C [DRSC20269] scored Wolbachia per cell robust z, rep 1 = 1.93; Wolbachia per cell robust z, rep 2 = 2.08; Wolbachia per cell robust z, rep 3 = 2.37.
For Pp1-13C [DRSC23305] the deposit lists Wolbachia per cell robust z, rep 1 = -1.13; Wolbachia per cell robust z, rep 2 = 0.000861; Wolbachia per cell robust z, rep 3 = -0.208.
For Pp1-13C [DRSC27492], the values are Wolbachia per cell robust z, rep 1 = 0.217; Wolbachia per cell robust z, rep 2 = 0.212; Wolbachia per cell robust z, rep 3 = 0.884.
For CG12684 [DRSC17875], the entry reads Wolbachia per cell robust z, rep 1 = 0.232; Wolbachia per cell robust z, rep 2 = -0.97; Wolbachia per cell robust z, rep 3 = -0.233.
For CG13742 [DRSC41305], the values are Wolbachia per cell robust z, rep 1 = 0.695; Wolbachia per cell robust z, rep 2 = -2.12; Wolbachia per cell robust z, rep 3 = -0.494.
With knock-down of Grl36b [DRSC01627], the screen gave Wolbachia per cell robust z, rep 1 = 1.38; Wolbachia per cell robust z, rep 2 = 0.385; Wolbachia per cell robust z, rep 3 = -0.421.
CG17329 [DRSC01926] scored Wolbachia per cell robust z, rep 1 = 0.0279; Wolbachia per cell robust z, rep 2 = -2.3; Wolbachia per cell robust z, rep 3 = -0.677.
With knock-down of CG17329 [DRSC28365] the results were Wolbachia per cell robust z, rep 1 = 1.14; Wolbachia per cell robust z, rep 2 = 0.836; Wolbachia per cell robust z, rep 3 = 0.794.
